What was measured:
Type in all cases: cell-based
Hafnia alvei = assay: β-galactosidase detection on semi-solid medium, clinical and environmental strains (Example 2); conditions: 80 mg/l; 18 hours; 10 strains tested
Morganella morganii = assay: as above; conditions: 80 mg/l; 18 hours; 12 strains tested
Providencia stuartii = assay: as above; conditions: 80 mg/l; 18 hours; 10 strains tested
Enterobacter agglomerans = assay: as above; conditions: 80 mg/l; 18 hours; 1 strain tested
Aeromonas caviae = assay: as above; conditions: 80 mg/l; 18 hours; 7 strains tested
Klebsiella pneumoniae = assay: as above; conditions: 80 mg/l; 18 hours; 19 strains tested
[1] = test system: 367 different strains collected from clinical and environmental specimens; assay: β-galactosidase detection on semi-solid medium, all strains together (Example 2); conditions: 80 mg/l; 18 hours at 37° C.
Serratia odorifera = assay: β-galactosidase detection on semi-solid medium, clinical and environmental strains (Example 2); conditions: 80 mg/l; 18 hours; 1 strain tested
Citrobacter freundii = assay: as above; conditions: 80 mg/l; 18 hours; 16 strains tested
Proteus vulgaris = assay: as above; conditions: 80 mg/l; 18 hours; 4 strains tested
Proteus penneri = assay: as above; conditions: 80 mg/l; 18 hours; 1 strain tested
Shigella sonnei = assay: as above; conditions: 80 mg/l; 18 hours; 10 strains tested
Escherichia coli = assay: as above; conditions: 80 mg/l; 18 hours; 41 strains tested
Providencia rettgeri = assay: as above; conditions: 80 mg/l; 18 hours; 3 strains tested
[2] = test system: Providencia alcalifaciens; assay: as above; conditions: 80 mg/l; 18 hours; 3 strains tested
Shigella flexneri = assay: as above; conditions: 80 mg/l; 18 hours; 2 strains tested
Citrobacter diversus = assay: as above; conditions: 80 mg/l; 18 hours; 9 strains tested
Yersinia enterocolitica = assay: as above; conditions: 80 mg/l; 18 hours; 14 strains tested
Klebsiella ozaenae = assay: as above; conditions: 80 mg/l; 18 hours; 3 strains tested
Acinetobacter spp. = assay: as above; conditions: 80 mg/l; 18 hours; 53 strains tested
Shigella boydii = assay: as above; conditions: 80 mg/l; 18 hours; 1 strain tested
Enterobacter aerogenes = assay: as above; conditions: 80 mg/l; 18 hours; 9 strains tested
Klebsiella oxytoca = assay: as above; conditions: 80 mg/l; 18 hours; 13 strains tested
Escherichia hermannii = assay: as above; conditions: 80 mg/l; 18 hours; 1 strain tested
Aeromonas hydrophila = assay: as above; conditions: 80 mg/l; 18 hours; 3 strains tested
Serratia spp. = assay: as above; conditions: 80 mg/l; 18 hours; 14 strains tested
Proteus mirabilis = assay: as above; conditions: 80 mg/l; 18 hours; 16 strains tested
Salmonella spp. = assay: as above; conditions: 80 mg/l; 18 hours; 64 strains tested
Enterobacter cloacae = assay: as above; conditions: 80 mg/l; 18 hours; 21 strains tested

“5-Bromo-4-chloro-3-indolyl-β-D-galactoside [reference compound]” was tested, and the “percentage of positive strains” value (Hafnia alvei) was 80%, the “percentage of positive strains” value (Morganella morganii) was 0% and the “percentage of positive strains” value (Providencia stuartii) was 0%. For the same substance, the “percentage of positive strains” value (Enterobacter agglomerans) was 100%, the “percentage of positive strains” value (Aeromonas caviae) was 86% and the “percentage of positive strains” value (Klebsiella pneumoniae) was 100%. For the same substance, the “color of colonies expressing β-galactosidase activity” value [1] was “turquoise”, the “percentage of positive strains” value (Serratia odorifera) was 100% and the “percentage of positive strains” value (Citrobacter freundii) was 100%. For the same substance, the “percentage of positive strains” value (Proteus vulgaris) was 0%, the “percentage of positive strains” value (Proteus penneri) was 0% and the “percentage of positive strains” value (Shigella sonnei) was 100%. The “percentage of positive strains” value (Escherichia coli) was 95%, the “percentage of positive strains” value (Providencia rettgeri) was 0% and the “percentage of positive strains” value [2] was 0%. For the same substance, the “percentage of positive strains” value (Shigella flexneri) was 0%, the “percentage of positive strains” value (Citrobacter diversus) was 89% and the “percentage of positive strains” value (Yersinia enterocolitica) was 29%. For the same substance, the “percentage of positive strains” value (Klebsiella ozaenae) was 67%, the “percentage of positive strains” value (Acinetobacter spp.) was 0% and the “percentage of positive strains” value (Shigella boydii) was 0%. For the same substance, the “percentage of positive strains” value (Enterobacter aerogenes) was 100%, the “percentage of positive strains” value (Klebsiella oxytoca) was 100% and the “percentage of positive strains” value (Escherichia hermannii) was 100%. The “percentage of positive strains” value (Aeromonas hydrophila) was 100%, the “percentage of positive strains” value (Serratia spp.) was 79% and the “percentage of positive strains” value (Proteus mirabilis) was 0%. The “percentage of positive strains” value (Salmonella spp.) was 0% and the “percentage of positive strains” value (Enterobacter cloacae) was 100%.

Source: patent US7563592B2, “Alizarin-based chromogenic substrates, their uses and composition containing same” (Biomerieux, S.A., priority 1999, dated 2009)
